This note sets out measurements from article PMC12649483, “Novel Chalcone Derivatives as Anti-Leishmania infantum Agents with Potential Synergistic Activity and In Silico Insights” (Antibiotics, 2025).

The test system of data set [1] is L. infantum promastigotes. Description: In vitro leishmanicidal activity (MTT) in promastigote forms. It counts as cell-based, Leishmania infantum. Particulars: CC50 (PBMCs) / IC50 promastigotes. The procedure: (§1) Promastigote forms of L. infantum [IOC/L0579 (MHOM/BR/1974/PP75)] were cultured in Schneider’s medium (pH 7.0), supplemented with 20% fetal bovine serum (FBS), 1% human male urine, and 1% antibiotic solution (penicillin 200 U/mL and streptomycin 0.1 mg/mL), and maintained at 26 ± 1 °C (B.O.D SL 200—SOLAB, Piracicaba, SP, BR). The generation of extracellular axenic amastigote forms of L. infantum was based on protocols previously described by Debrabant et al. (2004), with modifications that included the use of Schneider’s medium adjusted to pH 5.5 and incubation at 37 °C (CO2 Series 3517-2, Cornelius, OR, USA).
The antileishmanial activity of compounds against metacyclic promastigote populations was assessed using the MTT (ACROS, Livingston, NJ, USA) assay for cell viability analysis. […]
In 96-well plates, initial screening was performed with serial dilutions (400 to 3.12 μM) of compounds 3a–c and 4a–c in duplicate. […] Following 72 h-treatment of promastigotes and 24 h-treatment of amastigotes (accounting for the stationary phase culture characteristics), MTT was added for 4 h, followed by overnight incubation with sodium dodecyl sulfate (SDS) for spectrophotometric (Biotek model ELx800, Winooski, VT, USA) reading at 540 nm.

In data set [2] the test system is L. infantum axenic amastigotes. Description: In vitro leishmanicidal activity (MTT) in axenic amastigote forms. In kind it is cell-based, Leishmania infantum. Particulars: CC50 (PBMCs) / IC50 amastigotes. The procedure:
as §1
In 96-well plates, initial screening was performed with serial dilutions (400 to 3.12 μM) of compounds 3a–c and 4a–c in duplicate. […] AmB was used as a positive control due to its established leishmanicidal activity, tested at concentrations ranging from 10 to 0.078 μM. Following 72 h-treatment of promastigotes and 24 h-treatment of amastigotes (accounting for the stationary phase culture characteristics), MTT was added for 4 h, followed by overnight incubation with sodium dodecyl sulfate (SDS) for spectrophotometric (Biotek model ELx800, Winooski, VT, USA) reading at 540 nm.

In the case of `C[C@@H]1[C@H](O)[C@@H](C)/C=C/C=C/C=C/C=C/C=C/C=C/C=C/[C@H](O[C@@H]2O[C@H](C)[C@@H](O)[C@H](N)[C@@H]2O)C[C@@H]2O[C@](O)(C[C@@H](O)C[C@@H](O)[C@H](O)CC[C@@H](O)C[C@@H](O)CC(=O)O[C@H]1C)C[C@H](O)[C@H]2C(=O)O` [AmB, Amphotericin B, reference compound], in data set [1], the “SI (promastigotes)” value stood at 34.4. For the same compound, the “SI (amastigotes)” value in data set [2] is recorded as 33.6.
